Anti-infective test results gathered from many reports (values: NIAID ChemDB through PubChem).

Common to all: growth or infection tests; agent: Mycobacterium tuberculosis

MIC50, MIC90 and the like: level of inhibition, or share of isolates inhibited.

O=C1CSC(c2ccc([N+](=O)[O-])cc2)N1C(=O)NCCCN1c2ccccc2Sc2ccccc21 ; method: agar ; tested at: 50 µg/mL ; read-out: inhibition ; strain: H37Rv ; result: 70%
O=C(N/N=C/c1cccc(F)c1)c1ccncc1 ; read-out: MIC ; strain: H37Rv (ethambutol-resistant) ; result: ≤2 µg/mL
CC1CN(c2cc3c(cc2F)c(=O)c(C(=O)O)cn3-c2ccc(F)cc2F)CCN1 ; read-out: MIC ; strain: ATCC 35823 ; result: 1 µg/mL
COc1ccc(Sc2nc(Cl)nc3nc[nH]c23)cc1 ; read-out: MIC90 ; strain: H37Rv ; result: >6.25 µg/mL
O=C(NNCc1ccccc1F)c1ccncc1 ; read-out: MIC ; strain: H37Rv (ciprofloxacin-resistant) ; result: 3.9 µg/mL
CCCCCCCCCCCNCCNC1CCc2ccccc21 ; read-out: MIC ; result: 25 µM
COc1cc(CNCCNC(C)Cc2c[nH]c3ccccc23)cc(OC)c1OC ; read-out: MIC ; result: 50 µM
CC(NNC(=O)c1ccncc1)c1cccc(C(F)(F)F)c1 ; read-out: MBC ; strain: H37Rv ; result: 25 µg/mL
CCCCCCOc1cccc(NC(=O)OCCN2CCCCCC2)c1 ; read-out: MIC ; strain: My 331/88 ; result: 8 µM
CCCCCCCCCCCNCCNCC1CCCO1 ; read-out: MIC ; result: 50 µM
C/C(=N\NC(=O)c1ccncc1)c1ccccc1 ; read-out: MIC ; strain: H37Rv (ethionamide-resistant) ; result: 32 µg/mL
CCCC(=O)Oc1cc2oc3cc(OC(=O)CCC)c(OC)c(CCC(C)C)c3c(=O)c2c(O)c1CCC(C)C ; method: resazurin ; read-out: MIC ; strain: H37Ra ; result: 25 µg/mL
CC(=O)O[C@H]1C[C@@]2(C)[C@@H](C[C@@H](O)[C@H]3[C@@]4(C)CC[C@@H](O)[C@@H](C)[C@@H]4CC[C@@]32C)/C1=C(\CCC=C(C)C)C(=O)O ; read-out: Mean MIC ; strain: H37Ra ; result: 3.5 µg/mL
C=CCOc1cc2oc3cc(O)c(CCC(C)C)c(O)c3c(=O)c2c(CCC(C)C)c1OC ; method: resazurin ; read-out: MIC ; strain: M-4 ; result: 3.12 µg/mL
CCCCCCCCOc1ccccc1NC(=O)OCCN1CCCCC1 ; read-out: MIC ; strain: My 331/88 ; result: 16 µM
COc1ccccc1/C=C1/SC(c2ccccc2OC)N(C(=O)NCCCN2c3ccccc3Sc3ccccc32)C1=O ; method: agar ; tested at: 50 µg/mL ; read-out: inhibition ; strain: H37Rv ; result: 65%
CC(C)N=c1cc2n(-c3ccc(Cl)cc3)c3ccccc3nc-2cc1Nc1ccc(Cl)cc1 ; read-out: Median MIC ; strain: H37Rv ; result: 0.31 µg/mL
COc1ccc(CNCCNCc2ccccc2Cl)c(OC)c1 ; read-out: MIC ; result: 50 µM
O=[N+]([O-])c1cn2c(n1)OC[C@@H](OCc1ccc(OC(F)(F)F)cc1)C2 ; read-out: MIC ; strain: H37Rv-T3 (PA-824-resistant) ; result: >100 µM
O=c1nc(SCc2cccnc2)c2[nH]cnc2[nH]1 ; tested at: 6.25 µg/mL ; read-out: inhibition ; strain: H37Rv ; result: 1%
CN[C@@H]1[C@H](O[C@H]2[C@H](O[C@H]3[C@H](O)[C@@H](O)[C@H](N=C(N)N)[C@@H](O)[C@@H]3N=C(N)N)O[C@@H](C)[C@]2(O)C=O)O[C@@H](CO)[C@H](O)[C@H]1O ; method: resazurin ; mutations: MDR ; read-out: MIC ; strain: M-3 ; result: >8 µg/mL
NNC(=O)c1ccncc1 ; read-out: MIC ; strain: PR410 ; result: 0.63 µg/mL
COc1ccc(CCN2C(=O)C(=O)N(c3ccc(C)cc3)C2=O)cc1OC ; method: BACTEC ; tested at: 12.5 µg/mL ; read-out: inhibition ; strain: H37Rv ; result: 0%
COc1ccc(/C=C/C(=O)c2ccccc2F)cc1 ; tested at: 12.5 µg/mL ; read-out: inhibition ; result: 82%
CCC1Cn2cc([N+](=O)[O-])nc2O1 ; read-out: MIC ; strain: H37Rv-5A1 (PA-824-resistant) ; result: >100 µM
CCCCCOc1cccc(NC(=O)OCCN2CCCCCC2)c1 ; read-out: MIC ; strain: My 331/88 ; result: 16 µM
O=C(/N=C/c1ccc([N+](=O)[O-])cc1)NCCCN1c2ccccc2Sc2ccccc21 ; method: agar ; tested at: 25 µg/mL ; read-out: inhibition ; strain: H37Rv ; result: 32%
CCCCCOc1ccccc1NC(=O)OCCN(C)C ; read-out: MIC ; strain: My 331/88 ; result: 125 µM
CCOc1cc2oc3cc(=O)/c(=C(\C)O)c(CC=C(C)C)c3c(O)c2c(=O)c1CC=C(C)C ; method: resazurin ; read-out: MIC ; strain: H37Ra ; result: 6.25 µg/mL
NC(=O)c1cnccn1 ; read-out: MIC ; strain: Isolate K10551 ; result: >500 µg/mL
CC(CNCC(c1ccccc1)c1ccccc1)N[C@@H]1C[C@@H]2C[C@H]([C@H]1C)C2(C)C ; read-out: MIC ; result: 50 µM
C[C@@H]1CN(c2c(F)c(N)c3c(=O)c(C(=O)O)cn(C4CC4)c3c2F)C[C@H](C)N1 ; read-out: MBC90 ; strain: MDR ; result: 2 µg/mL
NNC(=O)c1ccncc1 ; read-out: MIC ; strain: Strain 7 ; result: 0.125 µg/mL
O=C1CC(c2ccccc2)Oc2ccc(I)cc21 ; tested at: 12.5 µg/mL ; read-out: inhibition ; result: 0%
CCCCCCCCCCCNCCNC1CCCCC1 ; read-out: MIC ; result: 25 µM
COc1ccc(C2Oc3c(I)cccc3C(=O)C2O)cc1 ; read-out: EC50 ; strain: H37Rv ; result: >12.5 µg/mL
COc1cc(CNCCNCc2ccccc2)cc(OC)c1OC ; read-out: MIC ; result: 50 µM
O=C(NNCc1cccc(C(F)(F)F)c1)c1ccncc1 ; read-out: MIC ; strain: Isoniazid-resistant ; result: >6.25 µg/mL
CC(CNCCc1ccccc1F)NCC12CC3CC(CC(C3)C1)C2 ; read-out: MIC ; result: 25 µM
COc1ccc(Sc2ncnc3nc[nH]c23)c(OC)c1 ; read-out: MIC ; strain: H37Ra ; result: >12.8 µg/mL
Cc1ccc(C2SCC(=O)N2C(=O)NCCCN2c3ccccc3Sc3ccccc32)cc1 ; method: agar ; tested at: 50 µg/mL ; read-out: inhibition ; strain: H37Rv ; result: 41%
C[C@H]1C[C@H](N)CN1c1cc2c(cc1F)c(=O)c(C(=O)O)cn2-c1ccc(F)cc1F ; read-out: MBC ; strain: ATCC35838 ; result: 4 µg/mL
Cc1cccc(CSc2ncccn2)c1 ; read-out: MIC ; strain: H37Ra ; result: >12.8 µg/mL
COc1ccc(C(=O)/C=C/c2cccnc2)cc1 ; tested at: 12.5 µg/mL ; read-out: inhibition ; result: 0%
CC[C@H]1OC(=O)[C@H](C)[C@@H](O[C@H]2C[C@@](C)(OC)[C@@H](O)[C@H](C)O2)[C@H](C)[C@@H](O[C@@H]2O[C@H](C)C[C@H](N(C)C)[C@H]2O)[C@](C)(OC)C[C@@H](C)C(=O)[C@H](C)[C@@H](O)[C@]1(C)O ; read-out: MIC ; strain: ATCC 35820 ; result: >8 µg/mL
CN[C@@H]1[C@H](O[C@H]2[C@H](O[C@H]3[C@H](O)[C@@H](O)[C@H](N=C(N)N)[C@@H](O)[C@@H]3N=C(N)N)O[C@@H](C)[C@]2(O)C=O)O[C@@H](CO)[C@H](O)[C@H]1O ; read-out: Median MIC ; strain: H37Rv ; result: 0.28 µg/mL
COc1ccccc1CSc1ncnc2nc[nH]c12 ; read-out: MIC ; strain: H37Ra ; result: >12.8 µg/mL
Cc1cn(CCCCCCCCCCCCOc2c3occc3cc3ccc(=O)oc23)c(=O)[nH]c1=O ; method: BACTEC ; tested at: 12.5 µg/mL ; read-out: inhibition ; strain: H37Rv ; result: -23%
CN(C)c1ccc(O)c2c1C[C@H]1C[C@H]3[C@H](N(C)C)C(=O)C(C(N)=O)=C(O)[C@@]3(O)C(=O)C1=C2O ; read-out: Median MIC ; strain: H37Ra ; result: 2 µg/mL
COc1cc2oc3cc(O)c(CCC(C)C)c(O)c3c(=O)c2c(CCC(C)C)c1OC ; method: resazurin ; read-out: MIC ; strain: M5 ; result: 1.56 µg/mL
CO[C@H]1/C=C/O[C@@]2(C)Oc3c(C)c(O)c4c(O)c(c(/C=N/N5CCN(C)CC5)c(O)c4c3C2=O)NC(=O)/C(C)=C\C=C\[C@H](C)[C@H](O)[C@@H](C)[C@@H](O)[C@@H](C)[C@H](OC(C)=O)[C@@H]1C ; read-out: Mean MIC ; strain: H37Rv ; result: 0.075 µg/mL
CC[C@H]1OC(=O)[C@H](C)[C@@H](O[C@H]2C[C@@](C)(OC)[C@@H](O)[C@H](C)O2)[C@H](C)[C@@H](O[C@@H]2O[C@H](C)C[C@H](N(C)C)[C@H]2O)[C@](C)(O)C[C@@H](C)CN(C)[C@H](C)[C@@H](O)[C@]1(C)O ; read-out: MIC ; strain: ATCC35838 ; result: >8 µg/mL
Cc1cccc(CSc2ncnc3nc[nH]c23)c1 ; read-out: MIC90 ; strain: H37Rv ; result: >6.25 µg/mL
O=C(NNCc1ccccc1)c1ccncc1 ; read-out: MIC ; strain: Ethionamide-resistant ; result: >6.25 µg/mL
CC(C)(C)CC(C)(C)NCCNCC(c1ccccc1)c1ccccc1 ; read-out: MIC ; result: 18.8 µM
Nc1cccc(/C=C/C(=O)c2ccccc2O)c1 ; read-out: EC50 ; result: >12.5 µg/mL
O=C(/N=C/c1ccccc1O)NCCCN1c2ccccc2Sc2ccccc21 ; method: agar ; tested at: 50 µg/mL ; read-out: inhibition ; strain: H37Rv ; result: 55%
CO[C@H]1/C=C/O[C@@]2(C)Oc3c(C)c(O)c4c(O)c(c5c(c4c3C2=O)NC2(CCN(CC(C)C)CC2)N=5)=NC(=O)/C(C)=C\C=C\[C@H](C)[C@H](O)[C@@H](C)[C@@H](O)[C@@H](C)[C@H](OC(C)=O)[C@@H]1C ; read-out: MIC ; strain: Strain 78 (D516V) ; result: 0.125 µg/mL
CO[C@H]1/C=C/O[C@@]2(C)Oc3c(C)c(O)c4c(O)c(c(/C=N/N5CCN(C)CC5)c(O)c4c3C2=O)NC(=O)/C(C)=C\C=C\[C@H](C)[C@H](O)[C@@H](C)[C@@H](O)[C@@H](C)[C@H](OC(C)=O)[C@@H]1C ; read-out: MIC ; strain: TN805 ; result: >32 µg/mL
CC(C)c1ccc2c(c1)CC[C@H]1[C@](C)(CNCCNCc3ccc(F)cc3)CCC[C@]21C ; read-out: MIC ; result: 50 µM
CSC(=S)N/N=C/c1cccc(C)n1 ; read-out: MIC ; strain: PZA-R ; result: >12.8 µg/mL
NC[C@@H]1O[C@H](O[C@H]2[C@@H](O)[C@H](O[C@@H]3[C@@H](O)[C@H](N)C[C@H](N)[C@H]3O[C@H]3O[C@H](CO)[C@@H](O)[C@H](O)[C@H]3N)O[C@@H]2CO)[C@H](N)[C@@H](O)[C@@H]1O ; read-out: Median MIC ; strain: H37Rv ; result: 3 µg/mL
CC(C)c1ccc2c(c1)CC[C@H]1[C@](C)(CNCCNCCc3ccccc3F)CCC[C@]21C ; read-out: MIC ; result: 50 µM
CCOc1cc2oc3cc(O)c(CCC(C)C)c(O)c3c(=O)c2c(CCC(C)C)c1OC ; method: resazurin ; read-out: MIC ; strain: M21 ; result: 3.12 µg/mL
C/C(=N\NC(=O)c1ccncc1)c1ccc(F)cc1 ; read-out: MIC ; strain: H37Rv (rifampin-resistant) ; result: 4 µg/mL
COc1c(OCCCCBr)cc2oc3cc(O)c(CCC(C)C)c(O)c3c(=O)c2c1CCC(C)C ; method: resazurin ; read-out: MIC ; strain: H37Ra ; result: 12.5 µg/mL
O=c1cc(-c2cccc(-c3ccc4c(=O)cc(-c5ccccc5)oc4c3)c2)oc2ccccc12 ; read-out: EC50 ; result: >12.5 µg/mL
CC1(C)[C@H]2CC[C@@H](CNCCN3CCc4c([nH]c5ccccc45)C3)[C@@H]1C2 ; read-out: MIC ; result: 50 µM
O=C1CC(c2ccccc2)Oc2cc(I)ccc21 ; tested at: 12.5 µg/mL ; read-out: inhibition ; strain: H37Rv ; result: 20%
C/C(=N\NC(=O)c1ccncc1)c1ccccc1F ; read-out: MIC ; strain: Isoniazid-resistant ; result: >6.25 µg/mL
COc1ccccc1NC(=O)OCCN(C)C ; read-out: MIC ; strain: My 331/88 ; result: >1000 µM
CCCOc1cc2oc3cc(O)c(CCC(C)C)c(O)c3c(=O)c2c(CCC(C)C)c1OC ; method: resazurin ; mutations: MDR ; read-out: MIC ; strain: M-4 ; result: 3.12 µg/mL
CC(NNC(=O)c1ccncc1)c1ccc(Cl)c(Cl)c1 ; read-out: MBC ; strain: H37Rv ; result: 25 µg/mL
CCCCC(CC)CN1CN(CC(CC)CCCC)CC(C)(NCCNCc2cccc(F)c2)C1 ; read-out: MIC ; result: 50 µM
O=C(/C=C/c1ccccn1)c1ccccn1 ; tested at: 12.5 µg/mL ; read-out: inhibition ; result: 42%
COc1c(N2CCNC(C)C2)c(F)cc2c(=O)c(C(=O)O)cn(C3CC3)c12 ; read-out: MIC ; strain: Strain 23 ; result: 0.125 µg/mL

For reference, 4 entries again:

SMILES | method | mutations | tested at | read-out | strain | result
C/C(=N\NC(=O)c1ccncc1)c1ccccc1F |  |  |  | MIC | Isoniazid-resistant | >6.25 µg/mL
O=C1CC(c2ccccc2)Oc2ccc(I)cc21 |  |  | 12.5 µg/mL | inhibition |  | 0%
C[C@@H]1CN(c2c(F)c(N)c3c(=O)c(C(=O)O)cn(C4CC4)c3c2F)C[C@H](C)N1 |  |  |  | MBC90 | MDR | 2 µg/mL
O=C(/N=C/c1ccccc1O)NCCCN1c2ccccc2Sc2ccccc21 | agar |  | 50 µg/mL | inhibition | H37Rv | 55%

ECn is the concentration giving n% inhibition of infection, replication or growth. Rows are shuffled and stem from different studies. Blank or dashed fields: not listed here. Inhibition is in % at the dose shown (toxicity tests: loss of growth or viability).